Results of unrelated studies side by side (data: NIAID ChemDB).

All rows: tests on isolated targets

a–b is a range or a potency band.

compound	tested at	endpoint	protein	organism	value
COc1ccc(-c2ccc(Cl)cc2)c(-c2ccc3cc(-c4nc5cc(C(=O)O)ccc5n4C4CC(C)CC(C)(C)C4)ccc3n2)c1	33 µM	inhibition	NS5B polymerase	Hepatitis C virus	101%
O=C(NC1CCC(N(C(=O)c2ccc(Cl)cc2Cl)c2cc(-c3ccccc3)sc2C(=O)O)CC1)OCc1ccccc1		IC50	NS3 ATPase	Hepatitis C virus	<5 µM
COc1nc(NCCc2c[nH]c3ccccc23)nc(Nc2ccc3[nH]ncc3c2)n1	1 µg/mL	inhibition	DNA polymerase	Hepatitis B virus	43%
CCn1c(-c2ccc3nc(-c4cc(OC)ccc4-c4ccc(Cl)cc4)ccc3c2)nc2cc(C(=O)O)ccc21	100 µM	inhibition	NS5B polymerase	Hepatitis C virus	101%
CC[C@H](NC(=O)[C@H](CC(C)C)NC(=O)[C@@H](NC(=O)[C@@H](NC(=O)c1cnccn1)C(C)C)C(C)C)C(=O)C(=O)NCC(C)OC		Ki	NS3 protease	Hepatitis C virus	1–100 µM
CC(C)C[C@H](NC(=O)[C@H](CCC(=O)O)NC(=O)[C@@H](NC(=O)CCC(=O)O)C1CCCCC1)C(=O)NC1(C(=O)O)CC1	167 µM	inhibition	Nonstructural protein 3 NTPase/helicase	Hepatitis C virus	17%
CC[C@H](NC(=O)[C@H](CC(C)C)NC(=O)[C@@H](NC(=O)[C@@H](NC(=O)c1cnccn1)C(C)C)C(C)C)C(=O)C(=O)NCc1ccccc1OC		Ki	NS3 protease	Hepatitis C virus	>100 µM
CCN(C1=C(O)C[C@](CCc2ccc(O)cc2)(C2CCCC2)OC1=O)c1ccccc1		IC50	Nonstructural protein 5B	Hepatitis C virus	1–10 µM
CNC(=O)c1c(-c2ccc(F)cc2)oc2cc(-c3c(COC)noc3C3CC3)c(OC)cc12		IC50	Nonstructural protein 5B	Hepatitis C virus	≤0.5 µM
O=C(O)CCC(=O)N[C@@H](CCC(=O)O)C(=O)N[C@@H](CCC(=O)O)C(=O)NC1(C(=O)O)CC1		IC50	Nonstructural protein 3 NTPase/helicase	Hepatitis C virus	>83.5 µM
CC[C@@H](C=O)NC(=O)[C@@H]1C[C@@H](OCc2cnc(-c3ccc(Cl)cc3)s2)CN1C(=O)[C@@H](NC(=O)[C@@H](NC(=O)c1cnccn1)C(C)C)C(C)C		Ki	NS3 protease	Hepatitis C virus	1–100 µM
N#Cc1cnn2c(-c3ccccc3)c(-c3ccccc3)cnc12		IC50	RNA-dependent RNA polymerase	Hepatitis C virus	>10 µM
CC[C@@H](C=O)NC(=O)[C@@H]1C[C@@H](OCc2ccccc2)CN1C(=O)[C@@H](NC(=O)[C@@H](NC(C)=O)C(C)C)C(C)C		Ki	NS3 protease	Hepatitis C virus	1–100 µM
CNC(=O)c1c(-c2ccc(F)cc2)oc2cc(-c3cccnc3)c(OC)cc12		IC50	Nonstructural protein 5B	Hepatitis C virus	≤0.5 µM
NC(CC(=O)Nc1ccsc1-c1nc(C(=O)O)c(O)c(=O)[nH]1)c1ccccc1		IC50	HCV polymerase	Hepatitis C virus	<25 µM
CC(=O)N(Cc1ccc(F)cc1F)c1cc(-c2ccccc2)sc1C(=O)O		IC50	NS3 ATPase	Hepatitis C virus	5–20 µM
CCCN(C1=C(O)CC(C2CCCC2)(C2CCCC2)OC1=O)c1cccc(NS(=O)(=O)c2ccccn2)c1		IC50	Nonstructural protein 5B	Hepatitis C virus	10–50 µM
CC(C)NC1=NC(NC(C)C)N(CN)C(Nc2ccc3cn[nH]c3c2)=N1		IC50	DNA polymerase	Hepatitis B virus	0.1–1 µg/mL
O=C(O)CCC(=O)N[C@H](C(=O)N[C@@H](CCC(=O)O)C(=O)N[C@@H](Cc1ccc2ccccc2c1)C(=O)N[C@@H](CS)C(=O)O)C(c1ccccc1)c1ccccc1	16.7 µM	inhibition	Nonstructural protein 3 NTPase/helicase	Hepatitis C virus	42%
O=C(O)c1cc2nc(-c3ccc(Oc4ccccc4)cc3)cc(-c3cccc(OCc4ccccc4)c3)n2n1		IC50	RNA-dependent RNA polymerase	Hepatitis C virus	1–10 µM
CCOC(=O)c1csc(COc2cc3c(C(=O)NC)c(-c4ccc(F)cc4)oc3cc2N(C)S(C)(=O)=O)n1		IC50	Nonstructural protein 5B	Hepatitis C virus	≤0.5 µM
COc1cccc(CC2C(=O)CC(CCc3ccc(OC)c(OC)c3)(C3CCCC3)OC2=O)c1		IC50	Nonstructural protein 5B	Hepatitis C virus	1–10 µM
COCCNc1nc(Nc2ccc3cn[nH]c3c2)nc(OC)n1	0.1 µg/mL	inhibition	DNA polymerase	Hepatitis B virus	37%
O=C(O)c1ccc2c(c1)nc(-c1ccc3[nH]c(-c4ccccc4)cc(=O)c3c1)n2C1CCCCC1	100 µM	inhibition	NS5B polymerase	Hepatitis C virus	83.79%
CC(C)CN(C(=O)c1ccc(Cl)cc1Cl)c1cc(-c2ccccc2)sc1C(=O)O		IC50	NS3 ATPase	Hepatitis C virus	<5 µM
N#Cc1cnn2c(C3CCCCC3)c(-c3ccc(OCc4ccccc4)cc3)cnc12		IC50	RNA-dependent RNA polymerase	Hepatitis C virus	>10 µM
CCC(C)[C@H](NC(=O)[C@@H](NC(=O)CCC(=O)O)C1CCCCC1)C(=O)N[C@@H](CC1CCCCC1)C(=O)N[C@@H](CS)C(=O)O	16.7 µM	inhibition	Nonstructural protein 3 NTPase/helicase	Hepatitis C virus	82%
Cc1ccccc1CN(C(=O)C1CCC1)c1cc(-c2ccccc2)sc1C(=O)O		IC50	NS3 ATPase	Hepatitis C virus	5–20 µM
O=C(N[C@@H](Cc1c[nH]c2ccccc12)C(=O)O)c1cnn2c(C3CCCCC3)c(-c3ccc(Cl)cc3)cnc12		IC50	RNA-dependent RNA polymerase	Hepatitis C virus	<1 µM
CNC(=O)c1c(-c2ccc(F)cc2)oc2cc(-c3cncnc3)c(OC(C)C)cc12		IC50	Nonstructural protein 5B	Hepatitis C virus	≤0.5 µM
O=C(O)CCCC(=O)N[C@@H](CCC(=O)O)C(=O)N[C@@H](CCC(=O)O)C(=O)NC1(C(=O)O)CC1		IC50	Nonstructural protein 3 NTPase/helicase	Hepatitis C virus	>83.5 µM
Cc1c(-c2ccc(OCc3ccccc3)cc2)cnc2c(-c3nn[nH]n3)cnn12		IC50	RNA-dependent RNA polymerase	Hepatitis C virus	>10 µM
Cc1ccccc1S(=O)(=O)Nc1cc(-c2cccnc2)sc1C(=O)O		IC50	NS3 ATPase	Hepatitis C virus	<5 µM
O=C(Nc1cccc(-c2nc(C(=O)O)c(O)c(=O)[nH]2)c1)NC1Cc2ccccc2C1		IC50	HCV polymerase	Hepatitis C virus	<100 µM
CNC1N=C(OC)N=C(Nc2ccc3cn[nH]c3c2)N1CN	0.1 µg/mL	inhibition	DNA polymerase	Hepatitis B virus	36%
O=C(O)c1nc(-c2cccc(OCc3ccccc3C(F)(F)F)c2)[nH]c(=O)c1O		IC50	HCV polymerase	Hepatitis C virus	<100 µM
CNC(=O)c1c(-c2ccc(F)cc2)oc2cc(C3CCOC3)c(OC)cc12		IC50	Nonstructural protein 5B	Hepatitis C virus	≤0.5 µM
COc1nc(NCCCN2CCOCC2)nc(Nc2ccc3cn[nH]c3c2)n1	0.1 µg/mL	inhibition	Nonstructural protein 5B	Hepatitis C virus	40%
O=C(O)c1ccc2c(c1)nc(-c1ccc3nc(-c4cnccn4)ccc3c1)n2C1CCCCC1	33 µM	inhibition	NS5B polymerase	Hepatitis C virus	92.7%
O=C(NCc1ccc2c(c1)OCO2)Nc1ccccc1-c1nc(C(=O)O)c(O)c(=O)[nH]1		IC50	HCV polymerase	Hepatitis C virus	<100 µM
Cc1ccc(S(=O)(=O)Nc2cc(-c3ccccc3)sc2C(=O)O)c([N+](=O)[O-])c1		IC50	NS3 ATPase	Hepatitis C virus	5–20 µM
NC(=O)CC[C@H](NC(=O)[C@@H](NC(=O)CCC(=O)O)C1CCCCC1)C(=O)N[C@@H](CC1CCCCC1)C(=O)N[C@@H](CS)C(=O)O	16.7 µM	inhibition	Nonstructural protein 3 NTPase/helicase	Hepatitis C virus	51%
COc1nc(NCCc2c[nH]c3ccccc23)nc(Nc2ccc3cn[nH]c3c2)n1		IC50	DNA polymerase	Hepatitis B virus	>1 µg/mL
CC[C@H](NC(=O)[C@@H]1C[C@@H](OCc2ccccc2)CN1C(=O)[C@@H](NC(=O)[C@@H](NC(=O)C(CC(=O)O)NC(=O)[C@H](CCC(=O)O)NC(C)=O)C(C)C)C(C)C)C(=O)C(=O)NCCc1ccccc1		Ki	NS3 protease	Hepatitis C virus	<1 µM
CC1(c2ccc(CCC3(C4CCCC4)CC(=O)CC(=O)O3)cc2Cl)CC(=O)CC(=O)O1		IC50	Nonstructural protein 5B	Hepatitis C virus	<1 µM
CC[C@@H](C=O)NC(=O)[C@@H]1C[C@@H](OC(=O)Nc2cccc(Oc3ccccc3)c2)CN1C(=O)[C@@H](NC(=O)[C@@H](NC(=O)c1cnccn1)C(C)C)C(C)C		Ki	NS3 protease	Hepatitis C virus	1–100 µM
O=C(O)c1sc(-c2ccccc2)cc1NS(=O)(=O)c1cccc([N+](=O)[O-])c1		IC50	NS3 ATPase	Hepatitis C virus	<5 µM
O=C(O)CCCC(=O)N[C@H](C(=O)N[C@@H](CCC(=O)O)C(=O)N[C@@H](Cc1ccc2ccccc2c1)C(=O)N[C@@H](CS)C(=O)O)C1CCCCC1	16.7 µM	inhibition	Nonstructural protein 3 NTPase/helicase	Hepatitis C virus	88%
COc1nc(Nc2ccc3cn[nH]c3c2)nc(N2CCOCC2)n1	1 µg/mL	inhibition	DNA polymerase	Hepatitis B virus	58%
CNC(=O)c1c(-c2ccc(F)cc2)oc2cc(-c3ccncc3)c(OC(C)C)cc12		IC50	Nonstructural protein 5B	Hepatitis C virus	≤0.5 µM
O=C(O)c1nc(-c2cc(Br)cs2)[nH]c(=O)c1O		IC50	HCV polymerase	Hepatitis C virus	<25 µM
COC(=O)[C@@H]1CCCN1c1nc(Nc2ccc3cn[nH]c3c2)nc(OC)n1	1 µg/mL	inhibition	DNA polymerase	Hepatitis B virus	58%
O=C(/C=C/c1cccc(OC(F)(F)F)c1)Nc1ccsc1-c1nc(C(=O)O)c(O)c(=O)[nH]1		IC50	HCV polymerase	Hepatitis C virus	<25 µM
CC(C)[C@H](NC(=O)c1ccc2cc(-c3nc4cc(C(=O)O)ccc4n3C3CCCCC3)ccc2n1)C(N)=O	100 µM	inhibition	NS5B polymerase	Hepatitis C virus	94.96%
O=C(O)c1sc(-c2ccccc2)cc1N(C(=O)c1ccc(Cl)cc1Cl)C1CCCC1		IC50	NS3 ATPase	Hepatitis C virus	<5 µM
CC[C@@H](C=O)NC(=O)[C@@H]1C[C@@H](OCc2ccccc2)CN1C(=O)[C@@H](NC(=O)C(C#N)=C1CCCCC1)C(C)C		Ki	NS3 protease	Hepatitis C virus	1–100 µM
O=C(Nc1cccc(-c2nc(C(=O)O)c(O)c(=O)[nH]2)c1)NC(Cc1ccccc1)c1ccccc1		IC50	HCV polymerase	Hepatitis C virus	<100 µM
CC[C@@H](C=O)NC(=O)[C@@H]1C[C@@H](OCc2ccc(OC(F)(F)F)cc2)CN1C(=O)[C@@H](NC(=O)[C@@H](NC(=O)c1cnccn1)C(C)C)C(C)C		Ki	NS3 protease	Hepatitis C virus	1–100 µM
O=C(Nc1ccsc1-c1nc(C(=O)O)c(O)c(=O)[nH]1)NC(c1ccccc1)c1ccccc1		IC50	HCV polymerase	Hepatitis C virus	<25 µM
COc1nc(Nc2ccc3[nH]ncc3c2)nc(N2CCN(CCO)CC2)n1	0.1 µg/mL	inhibition	Nonstructural protein 5B	Hepatitis C virus	22%
O=C(O)c1ccc2c(c1)nc(-c1ccc3nc(-c4ccccn4)ccc3c1)n2C1CCCCC1	100 µM	inhibition	NS5B polymerase	Hepatitis C virus	98.37%

Inhibition is in % at the dose shown (toxicity tests: loss of growth or viability). ICn: concentration for n% inhibition. Rows are shuffled and stem from different studies. An empty or dashed field is not shown.